We go through one compound from patent publication US11807625B2, “Capsid inhibitors for the prevention of HIV” (Gilead Sciences, Inc., priority 2019, dated 2023).

SMILES strings stand for the structures.

The data set can be described thus: Plasma concentration vs. time profile of Compound Ib in rhesus after single subcutaneous dose (SHIV challenge study). Type of data set: in vivo, rhesus macaques.
The mark [1] stands for this setting: rhesus animals that became infected, SC Compound Ib.

Turning to `CC(C)(C#Cc1ccc(-c2ccc(Cl)c3c(NS(=O)(=O)C4CC4)nn(CC(F)F)c23)c([C@H](Cc2cc(F)cc(F)c2)NC(=O)Cn2nc(C(F)F)c3c2C(F)(F)[C@@H]2C[C@H]32)n1)S(C)(=O)=O` [Compound Ib, N—((S)-1-(3-(4-chloro-3-(cyclopropanesulfonamido)-1-(2,2-difluoroethyl)-1H-indazol-7-yl)-6-(3-methyl-3-(methylsulfonyl)but-1-yn-1-yl)pyridin-2-yl)-2-(3,5-difluorophenyl)ethyl)-2-((3b S,4aR)-3-(difluoromethyl)-5,5-difluoro-3b,4,4a,5-tetrahydro-1H-cyclopropa[3,4]cyclopenta[1,2-c]pyrazol-1-yl)acetamide], under setting [1], the “mean IQ at 1 week prior to the first detectable plasma virus” value turned out to be 0.78±0.36 and the “mean IQ at the 2 weeks prior to the first detectable plasma virus” value was found to be 0.85±0.33. In addition, under “rhesus plasma”, the “Compound Ib concentration corresponding to an inhibitory quotient (IQ) of 1” value was determined as 30 nM and the “Compound Ib concentration corresponding to an inhibitory quotient (IQ) of 4” value turned out to be 121 nM.
